Results reported in patent US5756145A, “Durable, Resilient and effective antimicrobial coating for medical devices and method of coating therefor” (priority 1995, dated 1998).

Test: HPLC measurement of residual antiseptic bonded to coated devices (Example 7)
Details: one week in serum, vs amount prior to incubation

Row | Compound | residual amount of chlorhexidine on antiseptic-coated devices [%] | residual amount of chloroxylenol on antiseptic-coated devices [%]
1 | [H]/N=C(\N/C(=N/[H])NCCCCCCNC(=N)NC(=N)Nc1ccc(Cl)cc1)Nc1ccc(Cl)cc1 [Chlorhexidine] | 44.9 | –
2 | Cc1cc(O)cc(C)c1Cl [Chloroxylenol, 4-chloro, 3,5-dimethyl phenol] | – | 46.1
